US20020052481A1

Key:
[1] = biological target: HIV-1JR-FL envelope glycoprotein gp120/gp41 on cells (HIV-1JR-FL)
[2] = biological target: HIV-1JR-FL envelope glycoprotein gp120/gp41 on cells (HIV-1JR-FL); remark: listed apart in the source

Substance: ^125I-CD4-gamma2 (Fc fusion)
- EC50 [1]: 36.4 nM
- EC50 [2]: 10 to 40 nM

Where two headings read alike, the source gives them in different places.
